Measured values: the supplement of paper PMC9931576
Human monoclonal antibodies against the spike receptor-binding domain (heavy:light variable regions). IC50 against pseudoviruses bearing the spike of naturally observed variants; lower = stronger; >10 µg/ml means not reached at the top dose. No active / inactive call. The stated detection limit is 0.0005 µg/ml; values near or below 0.001 µg/ml lie at the floor of the assay.

Key:
Assay in all cases: pseudovirus neutralization IC50; higher = weaker neutralization
[1] = molecular target: SARS-CoV-2 Omicron BA.1 spike pseudovirus
Protocol: (§1)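 Single-round VSV luciferase pseudovirus mixed with antibody dilutions for 1 h and put on Huh-7 cells for about a day; IC50 from the dose curve.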

[2] = molecular target: SARS-CoV-2 Omicron BA.2 spike pseudovirus
Protocol: as §1

[3] = molecular target: SARS-CoV-2 Omicron BA.2.75 spike pseudovirus
Protocol: as §1

[4] = molecular target: SARS-CoV-2 Omicron BA.5 spike pseudovirus
Protocol: as §1

[5] = molecular target: SARS-CoV-2 Omicron BQ.1.1 spike pseudovirus
Protocol: as §1

[6] = molecular target: SARS-CoV-2 Omicron XBB spike pseudovirus
Protocol: as §1

[7] = molecular target: SARS-CoV-2 early D614G spike pseudovirus
Protocol: as §1

B1: BD56-008 (protein)
chain 1: EVQLVQSGGGLVQPGGSLKLSCAASGFTFSGSAIYWVRQASGKGLEWVGRIRSRANSYATAYAASVKGRFSISRDDSKNTAYLQMNSLKMEDTAVYYCTRHGTEGVDLVPTIPWNWLDPWGQGTLVTVFS
chain 2: QSVLTQPPSVSGAPGQRVTISCTGSSSNIGAGYDVHWYQQLPGRAPKLFIYGNTNRPSGVPDRFSGSKSGTSASLAITGLQAEDEADYYCQSYDNSLSGSEVFGTGTKVTVL
pseudovirus neutralization IC50 [1]: > 10 µg/mL | pseudovirus neutralization IC50 [2]: > 10 µg/mL | pseudovirus neutralization IC50 [3]: > 10 µg/mL | pseudovirus neutralization IC50 [4]: > 10 µg/mL | pseudovirus neutralization IC50 [5]: > 10 µg/mL | pseudovirus neutralization IC50 [6]: > 10 µg/mL | pseudovirus neutralization IC50 [7]: > 10 µg/mL

B2: BD56-020 (protein)
chain 1: QVQLVQSGAEVKKPGSSVKVSCKASGGTFSSDTISWVRQAPGQGLEWMGGIIPMFGSTNYAQKFQGRVTITADESTSTAYMELNSLRSEDTAVYYCARDWKPGGYSGYDWTDMYYFDYWGQGTLVTVSS
chain 2: DIVMTQSPDSLAVSLGERATINCKSSQSVLYSSNNKNYLTWYQQKPGQPPKLLIYGASTRESGVPDRFSGSGSGTDFTLTISSLQAEDVAVYYCQQYYSIPRTFGQGTKVEIK
pseudovirus neutralization IC50 [1]: 0.407 µg/mL | pseudovirus neutralization IC50 [2]: 6.11 µg/mL | pseudovirus neutralization IC50 [3]: 2.34 µg/mL | pseudovirus neutralization IC50 [4]: 5.41 µg/mL | pseudovirus neutralization IC50 [5]: > 10 µg/mL | pseudovirus neutralization IC50 [6]: 6.41 µg/mL | pseudovirus neutralization IC50 [7]: 0.221 µg/mL

B3: BD56-031 (protein)
chain 1: QVQLVQSGAEVKKPGSSVKVSCKASGGTFSIYAISWVRQAPGQGLEWMGRIIPNFGIANFAQRFQGRVTITADKSTSTAYMELSSLRSEDTAVYYCARGVESSGYLDHDAFDIWGQGTLVTVSS
chain 2: DFQMTQSPSSLSASVGDRVTITCRASQSISSYLNWYQQKPGEAPKLLIYAASTLQSGVPSRFSGSGSGTDFTLTISNLQPEDFATYYCQQSYSATQTFGQGTKVEIK
pseudovirus neutralization IC50 [1]: 0.00732 µg/mL | pseudovirus neutralization IC50 [2]: 0.00355 µg/mL | pseudovirus neutralization IC50 [3]: 0.00834 µg/mL | pseudovirus neutralization IC50 [4]: 2.66 µg/mL | pseudovirus neutralization IC50 [5]: > 10 µg/mL | pseudovirus neutralization IC50 [6]: > 10 µg/mL | pseudovirus neutralization IC50 [7]: 0.00417 µg/mL

B4: BG4-25 (protein)
chain 1: EVQLVESGGGLIQPGGSLRLSCAASGITVVRNYMTWVRQAPGKGLEWVSVIYSGGTTYYADSVKGRFTISRDNSKNTMYLQMNSLRAEDTAIYYCARDLEVVGAMDVWGQGTTVTVSS
chain 2: EIVLTQSPGTLSLSPGERATLSCRASQSVPSSYLAWYQQKPGQAPRLLIYGASSRATGIPDRFSGSGSGTDFTLTISRLEPEDFAVYYCQQYGSPMYTFGQGTKLEIK
pseudovirus neutralization IC50 [1]: 1.97 µg/mL | pseudovirus neutralization IC50 [2]: 2.09 µg/mL | pseudovirus neutralization IC50 [3]: 0.939 µg/mL | pseudovirus neutralization IC50 [4]: 4.34 µg/mL | pseudovirus neutralization IC50 [5]: > 10 µg/mL | pseudovirus neutralization IC50 [6]: > 10 µg/mL | pseudovirus neutralization IC50 [7]: 0.0044 µg/mL

B5: BD56-033 (protein)
chain 1: QVQLVESGGGVVQPGRSLRLSCAASGFTFSNYAFHWVRQAPGKGLEWVALISDDGRDKFYADSVKGRFTISRDNSKNTLSLQMNSLRGDDTAVYFCARDDRTVSPVSFFDCWGQGTLVTVSS
chain 2: DIQMSQSPSSLSASVGDRVTITCRASQSIQNYLNWYQFSPGKAPKLLIFDASSLQSGVPSRFSGSGSGTEFTLTISSLHPEDFATYYCQQSYNTPPWTFGQGTKVEIK
pseudovirus neutralization IC50 [1]: > 10 µg/mL | pseudovirus neutralization IC50 [2]: > 10 µg/mL | pseudovirus neutralization IC50 [3]: > 10 µg/mL | pseudovirus neutralization IC50 [4]: > 10 µg/mL | pseudovirus neutralization IC50 [5]: > 10 µg/mL | pseudovirus neutralization IC50 [6]: > 10 µg/mL | pseudovirus neutralization IC50 [7]: > 10 µg/mL

B6: BD56-038 (protein)
chain 1: EVQLVESGGGLVQPGGSLRLSCEASGFTFSRYWMHWVRQAPGKGLVWVSRINSDGSRTNYVDSVKGRFTISRDNAKNTLYLQLNSLRAEDTAVYYCARDLEYYDRSGDYKSDCYFDYWGQGTLVTVSS
chain 2: QSALTQPPSVSGAPGQRVTISCTGSSSNIGAGYDVHWYQHLPGTAPKALIYGNTNRPSGVPDRFSGSRSGTSASLAITGLQAEDEGIYYCQSYDSSLSVLFGGGTKLTVL
pseudovirus neutralization IC50 [1]: 5.1 µg/mL | pseudovirus neutralization IC50 [2]: > 10 µg/mL | pseudovirus neutralization IC50 [3]: > 10 µg/mL | pseudovirus neutralization IC50 [4]: 8.41 µg/mL | pseudovirus neutralization IC50 [5]: > 10 µg/mL | pseudovirus neutralization IC50 [6]: > 10 µg/mL | pseudovirus neutralization IC50 [7]: 0.607 µg/mL

B7: BD56-042 (protein)
chain 1: QVQLVESGGGVVQPGRSLRLSCAASGLTFSSYGMHWVRQAPGKGLEWVAVIWYDGSTKYYADSVKGRFTISRDNSKNTLYLQMNSLRAEDTAVYYCAKDLQGSAWYTFDDWGQGTLVTVSS
chain 2: NFMLTQPHSVSESPGKTVTISCTRSSGFIASNYVQWYQQRPGSAPTTVIYEDNQRPSGVPDRFSGSIDSSSNSASLTISGLKTEDEADYYCQSYDSSFHLVVFGGGTKLTVL
pseudovirus neutralization IC50 [1]: > 10 µg/mL | pseudovirus neutralization IC50 [2]: > 10 µg/mL | pseudovirus neutralization IC50 [3]: > 10 µg/mL | pseudovirus neutralization IC50 [4]: > 10 µg/mL | pseudovirus neutralization IC50 [5]: > 10 µg/mL | pseudovirus neutralization IC50 [6]: > 10 µg/mL | pseudovirus neutralization IC50 [7]: > 10 µg/mL

B8: Ehling_mAb-50 (protein)
chain 1: QVQLQESGPGLVNPSETLSLTCGVSGYSISSGFYWGWIRQPPGKGLEWIGSIYHRGSTFYNPSLKSRVTISVDRSKNQFSLRLSSVTAADTAVYYCARGEVLTSGGYNARFDPWGQGTLVTVSS
chain 2: DIQMTQSPSTLSASVGDSVTITCRASQSISLWLAWYQQKPGKAPKVLIYETSSLESGVPSRFSGSGAGTEFTLTISSLQPDDFATYYCQQYISYPLTFGGGTKVEIK
pseudovirus neutralization IC50 [1]: > 10 µg/mL | pseudovirus neutralization IC50 [2]: 0.931 µg/mL | pseudovirus neutralization IC50 [3]: > 10 µg/mL | pseudovirus neutralization IC50 [4]: 0.973 µg/mL | pseudovirus neutralization IC50 [6]: > 10 µg/mL | pseudovirus neutralization IC50 [7]: 0.471 µg/mL

B9: BD56-048 (protein)
chain 1: EVQLVESGGGLVQPGRSLRLSCAASGFIFEDYDMHWVRQAPGKGLEWVSGSSWNSGTIGYADSVQGRFTIIRDNAHNSVYLQMNRLRVEDTALYFCAKEDRKGDSGDDRPFDYWGQGTLVTVSS
chain 2: SYVLTQPPSVSVAPGQTARITCEGNNIGSKSLHWYQQKPGQAPVLVVYDDGDRPSGIPERFSGSNSGNTATLTISRVEAGDEADYYCQVWDSSGDHSYVFGTGTKVSVL
pseudovirus neutralization IC50 [1]: 0.0778 µg/mL | pseudovirus neutralization IC50 [2]: 0.0905 µg/mL | pseudovirus neutralization IC50 [3]: 0.0672 µg/mL | pseudovirus neutralization IC50 [4]: 0.167 µg/mL | pseudovirus neutralization IC50 [5]: > 10 µg/mL | pseudovirus neutralization IC50 [6]: > 10 µg/mL | pseudovirus neutralization IC50 [7]: 0.0345 µg/mL

B10: BD56-052 (protein)
chain 1: EVQLVESGGGLVQPGGSLRLSCAASGFAFSRYDMHWVRQGTGKDLEWVSTIGTGGDTYYADSVKGRFTISRENAHNSLNLQVNSLRAEDTAVYHCARGGQDDLGWYFDLWGRGTLVTVSS
chain 2: DIQMTQSPSSLSASIGDRVTITCRARQSISSYLNWYQQRPGKAPKLLIYAASTLQSGVPSRFSGSGSGTDFTLTISSLQPEDFATYYCQQSYTMPPVTFGPGTRVDIK
pseudovirus neutralization IC50 [1]: > 10 µg/mL | pseudovirus neutralization IC50 [2]: > 10 µg/mL | pseudovirus neutralization IC50 [3]: > 10 µg/mL | pseudovirus neutralization IC50 [4]: > 10 µg/mL | pseudovirus neutralization IC50 [5]: > 10 µg/mL | pseudovirus neutralization IC50 [6]: > 10 µg/mL | pseudovirus neutralization IC50 [7]: 6.67 µg/mL

B11: BD56-056 (protein)
chain 1: EVQLVESGGGLVKPGGSLRLSCAASGFLFSSYTMNWVRQTPGKGLEWVSSISSNSDYKQYADSVKGRFTISRDNAKNSLSLQMNSLRADDTAVYYCAREGSYDILSPDPLDLWGQGTMVSVSS
chain 2: EIVMTQSPATLSVSPGERATLSCRASQSVSSNLAWYQQKPGQAPRLLIYGASTRATGIPARFSGSGSGTEFTLTISSLQSEDFAVYYCQQYHMWPSYTFGQGTKLEIK
pseudovirus neutralization IC50 [1]: > 10 µg/mL | pseudovirus neutralization IC50 [2]: > 10 µg/mL | pseudovirus neutralization IC50 [3]: > 10 µg/mL | pseudovirus neutralization IC50 [4]: > 10 µg/mL | pseudovirus neutralization IC50 [5]: > 10 µg/mL | pseudovirus neutralization IC50 [6]: > 10 µg/mL | pseudovirus neutralization IC50 [7]: 6.88 µg/mL

B12: BD56-058 (protein)
chain 1: EVQLVESGGGLVQPGRSLRISCAASGFTFEDYGIHWVRQAPGKGLEWVSGITWNGGTIGYADSVKGRFIISRDNAKNSMYLHMSRLGIEDTAVYYCAKEWGRVTTVRGVVVDTYYAMDVWGQGTTVTVSS
chain 2: QSALTQPPSASGSPGQSVTISCTGTSSDVGGYHSVSWYQQHPGTAPKLIIYEVTRRPSGVPHRFSASKSGNTASLTVSGLQAEDEADYYCSSYAGNNNFEGVVFGGGTKLTV
pseudovirus neutralization IC50 [1]: 0.0162 µg/mL | pseudovirus neutralization IC50 [2]: 0.0187 µg/mL | pseudovirus neutralization IC50 [3]: 0.0194 µg/mL | pseudovirus neutralization IC50 [4]: 0.109 µg/mL | pseudovirus neutralization IC50 [5]: 4.2 µg/mL | pseudovirus neutralization IC50 [6]: 0.174 µg/mL | pseudovirus neutralization IC50 [7]: 0.0183 µg/mL
